Reference: patent US20060073067A1, “Peracid-based large-area decontamination” (published 2006)

Test system: Bacillus anthracis Vollum 1B
Assay: Surviving CFU/ml of Bacillus anthracis Vollum 1B after exposure to PAB
Settings: 15 minutes exposure to 65 mg/ml PAB; starting concentration 4×10^6 or 6×10^7 CFU/ml

## acetyl peroxyborate
  decontamination effectiveness (surviving CFU/ml, FIGS. 2 and 3): effective decontaminant
